{"source": "patent US6521797B1", "about": "“Oxime carboxylic acid derivative precursors” (Givaudan AG, priority 1998, dated 2003)", "test_system": "Axilla bacteria cultures", "experiment": "Activation with axilla bacteria cultures, headspace-GC and/or 18 member panel", "type": "cell-based", "details": "0.1% precursor, 20 hours at 30° C., active axilla bacteria cultures", "data": [{"substance": "5-methyl-heptan-3-one O-(3-methyl-5-phenyl-oxycarbonyl) oxime [Example 3(b)]", "values": [{"measurement": "Fragrant decomposition products formed", "value": "oxime, and alcohol"}]}, {"substance": "methyl-heptan-3-one O-(4-allyl-2-methoxy-phenoxycarbonyl) oxime [Example 3(a)]", "values": [{"measurement": "Fragrant decomposition products formed", "value": "oxime, and alcohol"}]}]}
